From PubChem BioAssay AID504720 (Sanford-Burnham Center for Chemical Genomics, 2011) come the findings set out here.

Protein sequences, listed by entry. Tags and fused reporters are not part of them. Lines headed by an entry give the natural chain unless they say otherwise; changes in a name come on top.
UniProt P0AE70: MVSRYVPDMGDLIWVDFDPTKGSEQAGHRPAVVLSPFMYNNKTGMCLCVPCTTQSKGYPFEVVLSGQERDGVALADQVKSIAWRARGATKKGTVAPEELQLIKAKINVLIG

The list shows a part of the results, in another mix than the full data. The source made the active and inactive calls. Rule as the data show it: active = activation above about 50%; inactive = the rest.

This experiment addresses Endoribonuclease toxin MazF (Escherichia coli (strain K12)) (UniProt P0AE70). The experiment in a line: activators of E. coli MazEF toxin-antitoxin RNase, primary screen, biochemical, fluorescence, uHTS (AID 504720). Conditions: FAM/BHQ RNA-DNA oligo cleavage fluorescence, 5 h, at 20 µM, hits give high values.
As to `CCN(/C(=N/P(=O)(N1CCOCC1)N1CCOCC1)N1CCOCC1)c1ccc(OC)cc1`, the activation is inactive: 6.07%.
Under `C[N+]1=C2C=CC=CC=C2SC12C([N+](=O)[O-])=CC([N+](=O)[O-])=C[C-]2[N+](=O)[O-]` (stereo not given) stands inactive: 5.92%; under `Nc1ccc([As](=O)(O)c2ccc(N)cc2)cc1`, inactive: -0.374%.
Then `c1cc(-c2nn[nH]n2)ccc1-c1nn[nH]n1`, with inactive: 1.05%.
Then `CC1CCN(C(=O)Oc2c(Cl)cc(Cl)c3cccnc23)CC1`, with inactive: -1.75%; and `CN(C)C(=O)OCCc1n(C)cc[n+]1C`, with inactive: 4.8%.
For the compound `CC(C)=N/N=C(\N)N[N+](=O)[O-]`, the activation was inactive: 2.48%.
Then `CC(C)c1nc(Nc2ccccc2)n(P(=O)(N(C)C)N(C)C)n1`, with inactive: -0.14%.
Then `COc1ccc(C2=NCC(CBr)S2)cc1` (stereo not given), with inactive: 17.4%; and `CCc1nc2c(n1)c1c(non1O)c1c2no[n+]1[O-]`, with inactive: 5.78%.
Under `O=[N+]([O-])c1cc([N+](=O)[O-])c(CCNc2ccccc2)c([N+](=O)[O-])c1` stands inactive: 2.13%; under `Cc1ccc(NP(=O)(Oc2ccccc2)Oc2ccccc2)nc1`, inactive: 14.3%.
Turning to `O=[N+]([O-])c1cccc2n[nH]nc12`, the activation was inactive: -3.38%.
Then `CC(=O)N1C2C3N(C(C)=O)C1C1N(C(C)=O)C(C(N1C(C)=O)N3C(C)=O)N2C(C)=O`, with inactive: 4%.
Under `O=[N+]([O-])c1ncn(CCn2ncnc2[N+](=O)[O-])n1` stands inactive: 8.29%; under `CC(C)(C)C(=O)NC(Sc1ccncn1)C(Cl)(Cl)Cl` (stereo not given), inactive: -18.8%.
Then `O=C(O)CNc1ccc([As](=O)(O)O)cc1`, with inactive: 7.28%; and `O=[N+]([O-])c1cccc(NC2=NCC(CBr)S2)c1` (stereo not given), with inactive: 7.87%; and `COC(=O)C1(C)COP(=O)(Nc2ccccc2)OC1` (stereo not given), with inactive: 8.15%.
For the compound `O=P1(N(CCCl)CCCl)OCCCS1` (stereo not given), the activation is inactive: 3.8%.
Under `O=C(Nc1cc([As](=O)(O)O)ccc1O)c1ccccc1` stands inactive: 4.52%; under `Nc1cccc2ccc([As](=O)(O)O)cc12`, inactive: -1.1%; under `CCN(N=Nc1nonc1N)c1nonc1N`, inactive: 6.23%.
Under `CN(C)P(=O)(N(C)C)n1c(Nc2ccccc2)nnc1-c1ccccc1` stands inactive: -0.202%; under `O=P(Nc1nc2ccc(Cl)cc2s1)(c1ccccc1)c1ccccc1`, inactive: 1.97%; under `CCCC1OP(N)(=O)OCC1CC` (stereo not given), inactive: 3.38%.
In the case of `O=C(O)c1ccccc1[As](=O)(O)O`, the activation was inactive: 8.09%.
Under `CC(=O)Nc1ccc([As](=O)(O)O)cc1` stands inactive: 6.84%.
Under `Cc1ccc(NP(=O)(Oc2ccccc2F)Oc2ccccc2F)nc1` stands inactive: 10.3%; under `CN(C(=O)Cc1ccc(Cl)c(Cl)c1)[C@H]1CCCC[C@@H]1N1CCCC1`, inactive: 8.78%; under `CCOP(=O)(Nc1ccccc1)OCC`, inactive: 2.85%.
Turning to `Cc1cc(SC(NC(=O)c2ccc(F)cc2)C(Cl)(Cl)Cl)ncn1` (stereo not given), the activation was inactive: 5.53%.
Then `O=C(NC(Sc1ccncn1)C(Cl)(Cl)Cl)c1ccccc1` (stereo not given), with inactive: -0.758%.
Then `Oc1ccccc1CNc1ccccn1`, with inactive: 2.89%; and `CC(C)CC(=O)NC(Sc1ccc(Cl)cc1)C(Cl)(Cl)Cl` (stereo not given), with inactive: -1.73%; and `Nc1cc(N)c2nonc2c1[N+](=O)[O-]`, with inactive: -11.7%.
Under `Cc1ccc(N/C(=N/P(=O)(N2CCOCC2)N2CCOCC2)N2CCOCC2)cc1` stands inactive: -0.993%; under `CN(C(=O)Cc1ccc(Cl)c(Cl)c1)[C@H]1CCCC[C@H]1N1CCCC1`, inactive: 0.681%; under `NC(=O)c1cc([N+](=O)[O-])cc([N+](=O)[O-])c1N`, inactive: 9.13%.
Regarding `Clc1ccc(Cl)c(NC2=NCC(CBr)S2)c1` (stereo not given), the activation was inactive: 5.36%.
Then `CN1CCCC(OC(=O)C(c2ccccc2)c2ccccc2)C1` (stereo not given), with inactive: -19.7%; and `Cc1ccc(OP(=O)(Nc2nccs2)Oc2ccc(C)cc2)cc1`, with inactive: -7.69%; and `COc1ccccc1OP(=O)(Nc1ccc(C)cn1)Oc1ccccc1OC`, with inactive: -3.43%.
Then `C[C@@H]1C=CCP(=O)(Oc2ccccc2)O1` (stereo not given in full), with inactive: 4.72%.
Then `C[C@H]1OP(=O)(Oc2ccccc2)C[C@@H]2O[C@@H]21` (stereo not given in full), with inactive: 5%; and `Cc1ccccc1CN(C)C(=O)COC(=O)C(O)(c1ccccc1)c1ccccc1`, with inactive: 3.77%; and `COC(=O)C1(C)COP(=O)(NCc2ccccc2)OC1` (stereo not given), with inactive: 11.1%.
Take `N#C/C(=C\c1ccc(N(CCBr)CCBr)cc1)C(N)=O`: the activation is inactive: 11.9%.
Under `CC(=O)c1ccc(N2CC2c2ccncc2)cc1` (stereo not given) stands inactive: -0.94%; under `CC(=O)Nc1ccc(Oc2c([N+](=O)[O-])cc([N+](=O)[O-])cc2[N+](=O)[O-])cc1`, inactive: 7.28%.
As to `CC(=O)Nc1ccc([As](=O)(O)O)c(O)c1`, the activation was inactive: -2.73%.
Under `CCOc1ccc(C2=NCC(CBr)S2)cc1` (stereo not given) stands inactive: 1.02%.
As to `O=P1(Nc2nc3ccc(Cl)cc3s2)COc2ccccc2O1` (stereo not given), the activation was inactive: 3.3%.
Then `CC(C)(C)C(=O)NC(Sc1ccccc1)C(Cl)(Cl)Cl` (stereo not given), with inactive: -3.56%; and `CCc1cc(O)c([N+](=O)[O-])c(C)c1[N+](=O)[O-]`, with inactive: 8.28%.
Under `CCC(=O)N1C2C3N(C(=O)CC)C1C1N(C(=O)CC)C(C(N1C(=O)CC)N3C(=O)CC)N2C(=O)CC` stands inactive: 4.72%.
Then `O=C(OC1CN2CCC1CC2)c1ccccc1` (stereo not given), with inactive: 0.38%; and `Cc1ccc(OP(=O)(Nc2ccccn2)Oc2ccc(C)cc2)cc1`, with inactive: 1.44%; and `CC(=O)NC(SC(=S)N(CC(C)C)CC(C)C)C(Cl)(Cl)Cl` (stereo not given), with inactive: 0.68%.
`COC(=O)c1cc2c(s1)N=C(c1ccccc1)N(C)P2(=O)N1CCOCC1` (stereo not given): the activation is inactive: -4.1%.
Then `CN(C)C(=O)Oc1noc2ccccc12`, with inactive: 2.78%; and `O=c1c2cc([N+](=O)[O-])ccc2[nH]c2c([N+](=O)[O-])cc([N+](=O)[O-])cc12`, with inactive: 0.83%; and `Cc1ccccc1OP(=O)(Nc1ccccn1)Oc1ccccc1C`, with inactive: 2.03%.
Under `CC(NC(=O)COC(=O)C(O)(c1ccccc1)c1ccccc1)c1ccccc1` (stereo not given) stands inactive: 2.18%; under `Cc1ccc(NP(=O)(Oc2cccc(C)c2)Oc2cccc(C)c2)nc1`, inactive: 4.26%.
